PubChem BioAssay AID624099 – ICCB-Longwood, 2012

Aim: 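Knock-downs relieving repression by E2 of an HPV18 LCR luciferase reporter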 (primary screen)
Cell system: human C33A cervical carcinoma cells (HPV-negative) stably expressing BPV1 E2 and an HPV18 LCR luciferase reporter
Reagent: siRNA pool against human genes, 40 nM
Time to read-out: 72 h
Read-out: 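HPV18 LCR reporter light per well, converted to plate-wise z-scores that exclude control wells, and averaged over triplicate plates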
Direction: mean z-score and z-score: higher = stronger reporter signal, weaker E2 silencing
Rule for the call: 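Hit if mean z-score reaches 2 and two or more of three replicate z-scores also reach 2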
Shown is one part, drawn at random, of about 21,000 reagents. Over the whole deposit, 497 (2.4%) got an active call. 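Higher z means weaker E2 silencing; only reporter increases were scored, and knock-downs that hurt cell survival may mask genuine repressor factors.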 Reagents against one gene are numbered here.

{"gene symbol": "GPR82", "reagent no.": 1, "mean z-score": 0.75, "z-score, replicate A": 0.94, "z-score, replicate B": 0.42, "z-score, replicate C": 0.89, "Call": "inactive"}
{"gene symbol": "NOP56P2", "reagent no.": 1, "mean z-score": 0.17, "z-score, replicate A": -0.09, "z-score, replicate B": 0.48, "z-score, replicate C": 0.13, "Call": "inactive"}
{"gene symbol": "DPEP1", "reagent no.": 1, "mean z-score": 0.35, "z-score, replicate A": 0.13, "z-score, replicate B": 0.54, "z-score, replicate C": 0.39, "Call": "inactive"}
{"gene symbol": "CCM2L", "reagent no.": 1, "mean z-score": -0.23, "z-score, replicate A": 0.38, "z-score, replicate B": -0.27, "z-score, replicate C": -0.82, "Call": "inactive"}
{"gene symbol": "VASN", "reagent no.": 1, "mean z-score": -0.23, "z-score, replicate A": -0.33, "z-score, replicate B": -0.26, "z-score, replicate C": -0.09, "Call": "inactive"}
{"gene symbol": "ZG16", "reagent no.": 1, "mean z-score": 1.71, "z-score, replicate A": 1.71, "z-score, replicate B": 1.91, "z-score, replicate C": 1.52, "Call": "inactive"}
{"gene symbol": "TAS2R42", "reagent no.": 1, "mean z-score": 0.19, "z-score, replicate A": 0.18, "z-score, replicate B": 0.3, "z-score, replicate C": 0.08, "Call": "inactive"}
{"gene symbol": "LOC399866 (retired record)", "reagent no.": 1, "mean z-score": -0.18, "z-score, replicate A": -0.04, "z-score, replicate B": -0.42, "z-score, replicate C": -0.08, "Call": "inactive"}
{"gene symbol": "TMEM167B", "reagent no.": 1, "mean z-score": 0.24, "z-score, replicate A": 0.17, "z-score, replicate B": 0.62, "z-score, replicate C": -0.08, "Call": "inactive"}
{"gene symbol": "ING3", "reagent no.": 1, "mean z-score": 0.69, "z-score, replicate A": 0.83, "z-score, replicate B": 0.28, "z-score, replicate C": 0.96, "Call": "inactive"}
{"gene symbol": "THRB", "reagent no.": 1, "mean z-score": 1.04, "z-score, replicate A": 1.13, "z-score, replicate B": 0.88, "z-score, replicate C": 1.12, "Call": "inactive"}
{"gene symbol": "THRB", "reagent no.": 2, "mean z-score": -0.18, "z-score, replicate A": -0.6, "z-score, replicate B": -0.59, "z-score, replicate C": 0.65, "Call": "inactive"}
{"gene symbol": "DUS2", "reagent no.": 1, "mean z-score": -0.33, "z-score, replicate A": -0.37, "z-score, replicate B": -0.46, "z-score, replicate C": -0.18, "Call": "inactive"}
{"gene symbol": "LOC389095 (retired record)", "reagent no.": 1, "mean z-score": -1.27, "z-score, replicate A": -1.32, "z-score, replicate B": -0.97, "z-score, replicate C": -1.51, "Call": "inactive"}
{"gene symbol": "S1PR5", "reagent no.": 1, "mean z-score": -0.32, "z-score, replicate A": -0.1, "z-score, replicate B": -0.3, "z-score, replicate C": -0.56, "Call": "inactive"}
{"gene symbol": "MAPK8IP1", "reagent no.": 1, "mean z-score": 0.5, "z-score, replicate A": 0.46, "z-score, replicate B": 0.56, "z-score, replicate C": 0.49, "Call": "inactive"}
{"gene symbol": "KIF20B", "reagent no.": 1, "mean z-score": 1.4, "z-score, replicate A": 1.47, "z-score, replicate B": 1.28, "z-score, replicate C": 1.46, "Call": "inactive"}
{"gene symbol": "ZNF501", "reagent no.": 1, "mean z-score": -0.45, "z-score, replicate A": -0.01, "z-score, replicate B": -0.91, "z-score, replicate C": -0.42, "Call": "inactive"}
{"gene symbol": "PELI3", "reagent no.": 1, "mean z-score": 1.54, "z-score, replicate A": 1.61, "z-score, replicate B": 1.78, "z-score, replicate C": 1.24, "Call": "inactive"}
{"gene symbol": "FLJ42258 (retired record)", "reagent no.": 1, "mean z-score": 0.2, "z-score, replicate A": 0.11, "z-score, replicate B": 0.47, "z-score, replicate C": 0.03, "Call": "inactive"}
{"gene symbol": "RCE1", "reagent no.": 1, "mean z-score": -0.75, "z-score, replicate A": -0.18, "z-score, replicate B": -0.71, "z-score, replicate C": -1.36, "Call": "inactive"}
{"gene symbol": "ZNF34", "reagent no.": 1, "mean z-score": 0.27, "z-score, replicate A": 0.11, "z-score, replicate B": 0.17, "z-score, replicate C": 0.52, "Call": "inactive"}
{"gene symbol": "FLJ35700 (retired record)", "reagent no.": 1, "mean z-score": 0.36, "z-score, replicate A": 0.36, "z-score, replicate B": 0.25, "z-score, replicate C": 0.46, "Call": "inactive"}
{"gene symbol": "SLC22A5", "reagent no.": 1, "mean z-score": -0.26, "z-score, replicate A": -0.23, "z-score, replicate B": -0.14, "z-score, replicate C": -0.39, "Call": "inactive"}
{"gene symbol": "PHTF2", "reagent no.": 1, "mean z-score": -1.2, "z-score, replicate A": -1.1, "z-score, replicate B": -1.25, "z-score, replicate C": -1.26, "Call": "inactive"}
{"gene symbol": "KCNF1", "reagent no.": 1, "mean z-score": -0.43, "z-score, replicate A": -0.09, "z-score, replicate B": -0.48, "z-score, replicate C": -0.73, "Call": "inactive"}
{"gene symbol": "OTOP3", "reagent no.": 1, "mean z-score": -0.2, "z-score, replicate A": -0.25, "z-score, replicate B": -0.58, "z-score, replicate C": 0.23, "Call": "inactive"}

Look-ups from above:
For “z-score, replicate A”, PELI3 is entered as 1.61
SLC22A5, Call → inactive
